Measured values from several laboratories, pooled; numbers as filed in NIAID ChemDB.

Shared fields: whole-cell or culture tests; organism: Mycobacterium avium; measure: MIC

Blank or dashed fields: not listed here. Lines come from different laboratories, so protocols vary.

SMILES | setting | strain or isolate | result
O=c1oc2ccc([N+](=O)[O-])cc2c(=O)n1-c1ccc(Br)cc1 | - | CNCTC MY330/88 | 125 µM
CCCCCCCCOc1ccc(NC(=O)OCCN2CCOCC2)cc1 | - | MY330/88 | 16 µM
O=c1oc2ccc(Br)cc2c(=O)n1-c1ccc(Br)cc1 | - | CNCTC MY330/88 | 16 µM
CCCCCCCCOc1ccc(NC(=O)OCC[NH+]2CCCC2)cc1 | - | MY330/88 | 16 µM
COc1ccc2oc(=O)n(-c3ccc(Cl)cc3)c(=O)c2c1 | - | CNCTC MY330/88 | 125 µM
Cc1ccc2oc(=O)n(-c3ccc(C(F)(F)F)cc3)c(=S)c2c1 | 21 d | MY330/88 | 32 µM
O=c1oc2ccccc2c(=O)n1-c1ccc(Cl)c(Cl)c1 | - | CNCTC MY330/88 | 16 µM
CC[C@H]1OC(=O)[C@H](C)C(=O)[C@H](C)[C@@H](O[C@@H]2O[C@H](C)C[C@H](N(C)C)[C@H]2O)[C@](C)(OC)C[C@@H](C)C(=O)[C@H](C)[C@H]2N(CCCCn3cnc(-c4cccnc4)c3)C(=O)O[C@]12C | - | Isolate 969 | 2.5 µg/mL
O=c1oc2ccc(F)cc2c(=O)n1-c1ccc(Cl)cc1 | - | CNCTC MY330/88 | 16 µM
CC(C)N=c1cc2n(-c3ccc(Cl)cc3)c3ccccc3nc-2cc1Nc1ccc(Cl)cc1 | - | 6194 | 2 µg/mL
Fc1ccc2oc(=S)n(-c3ccc(Br)cc3)c(=S)c2c1 | 14 d | MY330/88 | 16 µM
COc1cccc(NC(=O)OCCN2CCOCC2)c1 | - | MY330/88 | 1000 µM
Cc1ccc2oc(=O)n(-c3ccc(Cl)cc3)c(=S)c2c1 | 21 d | MY330/88 | 2 µM
Cc1ccc(-n2c(=O)oc3ccc(F)cc3c2=O)cc1 | - | CNCTC MY330/88 | 16 µM
Cc1ccc2oc(=S)n(-c3cccc(F)c3)c(=S)c2c1 | 14 d | MY330/88 | 8 µM
CCCCCCCCOc1cccc(NC(=O)OCCN2CCOCC2)c1 | - | MY330/88 | 32 µM
FC(F)(F)c1ccc(-n2c(=S)oc3ccc(Br)cc3c2=S)cc1 | 21 d | MY330/88 | 125 µM
CCCCCCOc1ccc(NC(=O)OCCN2CCOCC2)cc1 | - | MY330/88 | 32 µM

2 of the rows above, restated:

SMILES | setting | strain or isolate | result
Cc1ccc(-n2c(=O)oc3ccc(F)cc3c2=O)cc1 | - | CNCTC MY330/88 | 16 µM
CCCCCCCCOc1ccc(NC(=O)OCCN2CCOCC2)cc1 | - | MY330/88 | 16 µM